{"source": "paper PMC8754118", "about": "“The PqsE-RhlR Interaction Regulates RhlR DNA Binding to Control Virulence Factor Production in Pseudomonas aeruginosa” (Microbiology Spectrum, 2022)", "biological_target": "T1, RhlR:mBTL (Pseudomonas aeruginosa) (UniProt P54292)", "T1 sequence (looked up, limits assumed)": "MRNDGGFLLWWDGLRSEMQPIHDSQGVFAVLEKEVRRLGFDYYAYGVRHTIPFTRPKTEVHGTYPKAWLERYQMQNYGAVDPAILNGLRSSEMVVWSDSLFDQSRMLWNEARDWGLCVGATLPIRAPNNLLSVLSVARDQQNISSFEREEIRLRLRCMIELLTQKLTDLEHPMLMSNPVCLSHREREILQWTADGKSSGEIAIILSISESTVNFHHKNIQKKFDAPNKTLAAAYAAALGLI", "test": "EMSA", "conditions": "without PqsE, recombinant protein, protein details: untagged, probe letters rebuilt from the primers and the genome", "note": "For at least one entry, the source does not settle the construct or the ends of the probe. Where a protein sequence is shown, tags need not be part of it."}
{"sequence": "AGGCCTGCGAAGTGTCCTATAAGGACCGTGGCGGCAAATACCAGGGCCAGCGCGGCGTGACCCTGCCAAAAGCCTGACGCCAGAGCGTTTCGACACCGGAAACCGGGCCTGGCGCCCGGTTTTTTCATGCCTTTTCCGCCAACCCCTCGCTGTTCCCCGCCGGCCGCTCTGGCACGCCTTATCGCGGGCGGGCAGGGGCTTATGCGCAGGCGACCGCCCGTCCTGTGAAATCTGGCAGTTACCGTTAGCTTTCGAATTGGCTAAAAAGTGTTCATCGGCTACGCGTGAACACGGACGCCAATCGTTTGCGCAGGCCGATCTGCAAGACCCACACAAGCCCCTCGCCTGAAGGGGTACGCATCCGCCGTGGCTGGTCCGCGCGGATGGCCGCTGAGTTACTTGTCTGCCGTTCGAACAATAAGAACGAACTCTACGTAATGCCGGGATACCCGTGGCAGCGATAGCTGTTTGCCTGTTCGAAAATTTTTGGGAGGTGTGAA (double strand) [rhlA promoter EMSA probe]", "values": [{"measurement": "binding result", "result": "binds"}]}
